Data as given in patent US7846435 (TEIJIN, dated 2010).

B1: humanized VTm1.1 antibody (HuVTm1.1) (antibody, V domains shown)
VH: EVQLVESGGGLVQPGGSLRLSCAASGFTFSSYGMSWVRQAPGKGLEWVATISTGGSYTYYPDSVKGRFTISRDNSKNTLYLQMNSLRAEDTAVYYCARRGDAWGNLDYWGQGTLVTVSS
VL: EIVLTQSPATLSVSPGERATLSCRASQTISNNLHWYQQKPGQAPRLLIKSASQSISGIPARFSGSGSGTDFTLTISSLESEDFAVYYCQQSYSWPLTFGQGTKVEIK
B2: mouse VTm1.1 antibody (MuVTm1.1) (antibody, V domains shown)
VH: EVQLVESGGGLVKPGGPLKLSCAASGFTFSSYGMSWVRQTPEKRLEWVATISTGGSYTYYPDSVKGRFTISRDNAKNALYLQMSSLRSEDTAIYYCARRGDAWGNLDYWGQGTSVTVSS
VL: DVVLTQSPATLSVTPGDSVSLSCRASQTISNNLHWYQHKSHESPRLLIKSASQSISGIPSRFSGSGSGTDFTLSINSVETEDFGMYFCQQSYSWPLTFGAGTKLELK

Experiments:
Assay in all cases: cell-based or functional assay
[1] = target: VT2vh of E. coli 0157 V354 (E. coli)
[2] = target: VT2vh of E. coli 0157 V50 (E. coli)
[3] = target: VT2v of E. coli 0157 V601 (E. coli)
VT2vh = VT2vh (Escherichia coli)

Binder | ED50 (µg/ml), in vitro neutralizing assay [1] | ED50 (µg/ml), in vitro neutralizing assay [2] | ED50 (µg/ml), in vitro neutralizing assay [3] | EC50 (read off the curve) (VT2vh)
B1 | 0.39 µg/mL | 0.36 µg/mL | 0.32 µg/mL | 
B2 |  |  |  | ~0.2 µg/mL
